Measured values from several laboratories, pooled; numbers as filed in NIAID ChemDB.

Shared fields: tests in culture; organism: HIV-2; read by: cytopathic effect / MTT; measure: EC50

ECn: concentration that inhibits the pathogen or its effect by n%. Lines come from different laboratories, so protocols vary. Blank or dashed fields: not listed here.

| smiles | strain | cell line | value |
|---|---|---|---|
| COCn1c(C(=O)c2cccc3ccccc23)c(C(C)C)c(=O)[nH]c1=O | ROD | MT-4 | >42.98 µM |
| CO[C@H]1[C@@H](O)[C@H](n2ccc(N)nc2=O)[C@@H](O)[C@H](O)[C@@H]1O.O=C(O)/C=C/C(=O)O |  | MT-4 | >10 µg/mL |
| CCOCn1c(Cc2cc(C)cc(C)c2)c(CC)c(=O)[nH]c1=O | ROD | MT-4 | >249 µM |
| C=C1[C@@H](CO)C[C@H]1n1cnc2c(N)ncnc21 | ROD | MT-4 | 63 µM |
| O=c1[nH]cnc2c1ncn2[C@H]1CC[C@@H](CO)O1 | MS | CEM-T4 + CEM | 0.3 µg/mL |
| Cc1cn([C@H]2C[C@H](Nc3nc(N)nn3C)[C@@H](CO)O2)c(=O)[nH]c1=O | ROD | CEM | 65 µg/mL |
| Cn1ncc2c1S(=O)(=O)N(Cc1cccc(Cl)c1)C(=O)N2Cc1ccccc1F | ROD | MT-4 | >257.8 µM |
| C=CCNc1ncnc2c1ncn2CCOCP(=O)(O)O | ROD | CEM | 5 µg/mL |
| CC(C)c1c(C(=O)c2cccc3ccccc23)n(C/C=C/c2ccccc2)c(=O)[nH]c1=O | ROD | MT-4 | >21.23 µM |
| Cc1cn([C@H]2C[C@H](N=[N+]=[N-])[C@@H](COC(=O)CCC(=O)OC[C@H]3O[C@@H]4O[C@H]5[C@H](O)[C@@H](O)[C@@H](O[C@H]6[C@H](O)[C@@H](O)[C@@H](O[C@H]7[C@H](O)[C@@H](O)[C@@H](O[C@H]8[C@H](O)[C@@H](O)[C@@H](O[C@H]9[C@H](O)[C@@H](O)[C@@H](O[C@H]%10[C@H](O)[C@@H](O)[C@@H](O[C@H]3[C@H](O)[C@H]4O)O[C@@H]%10CO)O[C@@H]9CO)O[C@@H]8CO)O[C@@H]7CO)O[C@@H]6CO)O[C@@H]5CO)O2)c(=O)[nH]c1=O | ROD | MT-4 | 0.0575 µg/mL |
| O=C(CCCCCCCCCCC(=O)Nc1cc(S(=O)(=O)O)cc2cc(S(=O)(=O)O)cc(O)c12)Nc1cc(S(=O)(=O)O)cc2cc(S(=O)(=O)O)cc(O)c12 | ROD | MT-4 | 52 µM |
| Cn1ncc2c1S(=O)(=O)N(Cc1cccc(Cl)c1)C(=O)N2CC#N | ROD | MT-4 | >17.6 µM |
| C[C@H](CC1CNC2C1OC(N)CN2N)OCP(=O)(O)O | ROD | MT-4 | >100 µg/mL |
| CCOCn1c(Sc2ccccc2)c(CC)c(=O)[nH]c1=O | ROD | MT-4 | >146 µM |
| CCOC(=O)Cn1c(C(=O)c2cccc3ccccc23)c(C(C)C)c(=O)[nH]c1=O | ROD | MT-4 | >37.01 µM |
| Cc1cn([C@H]2C[C@H](N=[N+]=[N-])[C@@H](CO)O2)c(=O)[nH]c1=O | EHO Laboratory isolate | MT-2 | 0.003 µM |
| O=C(O)/C=C(\CC(=O)O)C(=O)O | ROD | MT-4 | >25 µM |
| CC(C)CNc1nc(N)nc2c1ncn2CCOCP(=O)(O)O | ROD | MT-4 | >0.16 µg/mL |
| CC(C)c1c(C(=O)c2cccc3ccccc23)n(Cc2ccccc2)c(=O)[nH]c1=O | ROD | MT-4 | >33.54 µM |
| O=C1Nc2ccc(Cl)cc2S(=O)(=O)n2cccc21 |  | MT-4 | >100 µM |
| CC(=O)O[C@@]12C[C@@H](C)[C@@]3(O)[C@@H](C=C(CO)C[C@]4(O)C(=O)C(C)=C[C@@H]34)[C@@H]1C2(C)C | ROD | MT-4 | 0.02 µg/mL |
| CCN1C(=O)c2cccn2S(=O)(=O)c2ccccc21 |  | MT-4 | >100 µM |
| C[C@H](C[n+]1c[nH]c2c(Nc3ccoc3)nc(N)nc21)OCP(=O)(O)O | ROD | MT-4 | 7.74 ± 1.33 µg/mL |
| CCOCn1c(Sc2cc(C)cc(C)c2)c(CC)c(=O)[nH]c1=O | EHO | MT-4 | >100 µM |
| O=S(=O)(O)c1cc(O)c2c(NS(=O)(=O)c3ccc(-c4ccc(S(=O)(=O)Nc5cc(S(=O)(=O)O)cc6cc(S(=O)(=O)O)cc(O)c56)cc4)cc3)cc(S(=O)(=O)O)cc2c1 | ROD | MT-4 | 23 µM |
| Cn1ncc2c1S(=O)(=O)N(Cc1cccc(Cl)c1)C(=O)N2Cc1ccccc1Cl | ROD | MT-4 | >277.2 µM |
| O=c1[nH]cnc2c1ncn2[C@H]1CC[C@@H](CO)O1 | ROD | MT-4 | 9.36 µg/mL |
| CC(C)=CCN1Cc2cc(Cl)cc3[nH]c(=S)n(c23)C[C@@H]1C | ROD | CEM + CEM-SS | >310 µM |
| Cn1ncc2c1S(=O)(=O)N(Cc1cccc(Cl)c1)C(=O)N2Cc1ccc(Cl)cc1Cl | ROD | MT-4 | >257.5 µM |
| CCCCCNc1nc(N)nc2c1[nH]c[n+]2C[C@@H](C)OCP(=O)(O)O | ROD | CEM | 15 ± 7.1 µg/mL |
| C1CNCCNCC(C2CNCCNCCCNCCNC2)CNCCNC1 | ROD | MT-4 | >200 µg/mL |
| Cn1ncc2c1S(=O)(=O)N(Cc1cccc(Cl)c1)C(=O)N2 | ROD | MT-4 | >232.2 µM |
| C1CNCCNCCCNCCNC1 | ROD | MT-4 | 54 µg/mL |
| CCc1cc(NCc2nc3c(Cl)ccc(Cl)c3o2)c(=O)[nH]c1C | ROD | MT-4 | >71 µM |
| CO[C@@H]1[C@@H](O)[C@@H](O)[C@H](O)[C@H](O)[C@H]1n1ccc(N)nc1=O |  | MT-4 | >10 µg/mL |
| C[C@H](Cn1cnc2c(N)ncnc21)OCP(=O)(O)O | ROD | MT-4 | 1.69 ± 0.35 µg/mL |
| Nc1nc2c(ncn2C2CC(CO)(CO)C2)c(=O)[nH]1 | ROD | MT-4 | >500 µM |
| Nc1nc(Nc2ccccc2)c2ncn(CCOCP(=O)(O)O)c2n1 | ROD | CEM | 35 µg/mL |
| Cc1cn([C@H]2C[C@H](N=[N+]=[N-])[C@@H](CO)O2)c(=O)[nH]c1=O | ROD | MT-4 | 0.0037 µM |
| CC(C)c1nc(CN(C)C(=O)N[C@H](C(=O)N[C@@H](Cc2ccccc2)C[C@H](O)[C@H](Cc2ccccc2)NC(=O)OCc2cncs2)C(C)C)cs1 | EHO Laboratory isolate | MT-2 | 0.35 µM |
| Cn1ncc2c1S(=O)(=O)N(Cc1cccc(Cl)c1)C(=O)N2Cc1cccc(Cl)c1 | ROD | MT-4 | >277.2 µM |
| CN1C(=O)c2cccn2S(=O)(=O)c2cc(Cl)ccc21 |  | MT-4 | >100 µM |
| Fc1cccc(F)c1[C@H]1SCc2nc3ccccc3n21 | ROD | MT-4 | >25 µg/mL |
| Nc1ncnc2c1ncn2C1CCC1 | ROD | MT-4 | >100 µM |
| CCc1c(C(=O)c2cccc3ccccc23)n(CC(=O)c2ccc(OC)cc2)c(=O)[nH]c1=O | ROD | MT-4 | >28.75 µM |
| Cc1cn([C@H]2C[C@H](N=[N+]=[N-])[C@@H](CO)O2)c(=O)[nH]c1=O | CBL-20 | MT-4 | 0.024 µM |
| Nc1ccn([C@@H]2CS[C@H](CO)O2)c(=O)n1 | EHO Laboratory isolate | MT-2 | 0.4 µM |
| Cc1cn([C@H]2C[C@H](N=[N+]=[N-])[C@@H](COC(=O)CCC(=O)O)O2)c(=O)[nH]c1=O | ROD | MT-4 | 0.084 µg/mL |
| CO[C@@H]1[C@@H](O)[C@@H](O)[C@H](O)[C@H](O)[C@H]1n1ccc(N)nc1=O.O=C(O)/C=C/C(=O)O |  | MT-4 | >10 µg/mL |
| CC(=O)c1ccc(C)cc1NC(C(N)=O)c1c(Cl)cccc1Cl | EHO | MT-4 | >137 µM |
| Cc1cn([C@H]2C[C@@H]3NC(NC#N)=NC[C@H]3O2)c(=O)[nH]c1=O | ROD | CEM | >100 µg/mL |
| CC(C)=CCN1Cc2cccc3[nH]c(=S)n(c23)C[C@@H]1C | ROD | MT-4 | >105 µM |
| Cc1c(Sc2ccccc2)n(COCCO)c(=O)[nH]c1=O | ROD | MT-4 | >250 µM |
| CCCCCCCCCCCCCCCCCCOC1OC(COS(=O)(=O)O)C(OC2OC(COS(=O)(=O)O)C(OC3OC(COS(=O)(=O)O)C(OC4OC(COS(=O)(=O)O)C(OC5OC(COS(=O)(=O)O)C(OC6OC(COS(=O)(=O)O)C(OS(=O)(=O)O)C(OS(=O)(=O)O)C6O)C(OS(=O)(=O)O)C5O)C(O)C4OS(=O)(=O)O)C(O)C3OS(=O)(=O)O)C(OS(=O)(=O)O)C2O)C(OS(=O)(=O)O)C1O | ROD | MT-4 | 1.4 µg/mL |
| CC1(C)C2=CC(=O)C(O)(c3ccccc3)C(=O)N2c2ccc(Cl)cc21 | ROD | MT-4 | >10 µM |
| CCC(C)Nc1nc(N)nc2c1ncn2CCOCP(=O)(O)O | ROD | MT-4 | 2 µg/mL |
| C#CCn1c(C(=O)c2cccc3ccccc23)c(CC)c(=O)[nH]c1=O | ROD | MT-4 | >4.82 µM |

Repeating the first 4 entries:

smiles,strain,cell line,value
COCn1c(C(=O)c2cccc3ccccc23)c(C(C)C)c(=O)[nH]c1=O,ROD,MT-4,>42.98 µM
CO[C@H]1[C@@H](O)[C@H](n2ccc(N)nc2=O)[C@@H](O)[C@H](O)[C@@H]1O.O=C(O)/C=C/C(=O)O,,MT-4,>10 µg/mL
CCOCn1c(Cc2cc(C)cc(C)c2)c(CC)c(=O)[nH]c1=O,ROD,MT-4,>249 µM
C=C1[C@@H](CO)C[C@H]1n1cnc2c(N)ncnc21,ROD,MT-4,63 µM